{"source": "PubChem BioAssay AID504761 – Drosophila RNAi Screening Center | 2011", "test": "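Fly genes whose silencing reduces dengue virus type 2 infection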 (primary screen)", "system": "D.Mel-2 cells from Drosophila", "reagents": "long dsRNA against Drosophila genes", "challenge": "infection with dengue virus type 2; dose and infection time not stated", "measured": "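Cells stained for dengue envelope protein and imaged; percent of infected cells per well on duplicate plates, ranked by infection, with stained nuclei counted for cell number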", "scale": "infection score: higher = more virus-infected cells; cell count: higher = more cells in the well", "rule for the call": "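Low infection ranks in the two replicates (chance level up to 0.065) followed by a retest with a 1.5-fold or larger significant decrease, p below 0.05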", "calls": "active = confirmed: knock-down lowers infection; inactive = not picked or not confirmed", "note": "In all, the deposit lists about 22,000 reagents; this is an unselected part of those with a known target gene and a result. Of all reagents, 116 (0.52%) are marked active. 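Calls depend on retest data that are not deposited; infection was ranked per plate without normalising between plates; the unit of the infection score is not given.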 Raw values are not corrected between plates. Not stated in the record: the amount of reagent, the time to read-out."}
{"gene": "rau", "amplicon": "DRSC03125", "infection score, replicate 1": 3.39, "infection score, replicate 2": 4.36, "cell count, replicate 1": 6343, "cell count, replicate 2": 6558, "call": "inactive"}
{"gene": "rau", "amplicon": "DRSC29748", "infection score, replicate 1": 3.19, "infection score, replicate 2": 5.68, "cell count, replicate 1": 6450, "cell count, replicate 2": 6694, "call": "inactive"}
{"gene": "CG13062", "amplicon": "DRSC09945", "infection score, replicate 1": 4.59, "infection score, replicate 2": 6.14, "cell count, replicate 1": 5814, "cell count, replicate 2": 5800, "call": "inactive"}
{"gene": "CG13062", "amplicon": "DRSC28840", "infection score, replicate 1": 14.2, "cell count, replicate 1": 2547, "cell count, replicate 2": 452, "call": "inactive"}
{"gene": "jet", "amplicon": "DRSC03116", "infection score, replicate 1": 10.3, "infection score, replicate 2": 6.14, "cell count, replicate 1": 5589, "cell count, replicate 2": 5683, "call": "inactive"}
{"gene": "jet", "amplicon": "DRSC26732", "infection score, replicate 1": 5.17, "infection score, replicate 2": 3.78, "cell count, replicate 1": 6750, "cell count, replicate 2": 6697, "call": "inactive"}
{"gene": "Rbf", "amplicon": "DRSC18704", "infection score, replicate 1": 6.38, "infection score, replicate 2": 18.3, "cell count, replicate 1": 6525, "cell count, replicate 2": 6122, "call": "inactive"}
{"gene": "Rbf", "amplicon": "DRSC25213", "infection score, replicate 1": 7.87, "infection score, replicate 2": 5.86, "cell count, replicate 1": 6515, "cell count, replicate 2": 6619, "call": "inactive"}
{"gene": "rb", "amplicon": "DRSC18826", "infection score, replicate 1": 1.77, "infection score, replicate 2": 5.91, "cell count, replicate 1": 904, "cell count, replicate 2": 5991, "call": "inactive"}
{"gene": "rb", "amplicon": "DRSC27940", "infection score, replicate 1": 14.1, "infection score, replicate 2": 11.2, "cell count, replicate 1": 4983, "cell count, replicate 2": 5686, "call": "inactive"}
{"gene": "NiPp1", "amplicon": "DRSC07307", "infection score, replicate 1": 7.5, "infection score, replicate 2": 16.9, "cell count, replicate 1": 5683, "cell count, replicate 2": 5293, "call": "inactive"}
{"gene": "spdi", "amplicon": "DRSC18487", "infection score, replicate 1": 8.61, "infection score, replicate 2": 14.6, "cell count, replicate 1": 6690, "cell count, replicate 2": 5972, "call": "inactive"}
{"gene": "spdi", "amplicon": "DRSC18488", "infection score, replicate 1": 3.1, "infection score, replicate 2": 9.14, "cell count, replicate 1": 6526, "cell count, replicate 2": 5746, "call": "inactive"}
{"gene": "Cln7", "amplicon": "DRSC11005", "infection score, replicate 1": 8.02, "infection score, replicate 2": 2.82, "cell count, replicate 1": 6200, "cell count, replicate 2": 6557, "call": "inactive"}
{"gene": "Vps16B", "amplicon": "DRSC15304", "infection score, replicate 2": 2.88, "cell count, replicate 1": 325, "cell count, replicate 2": 452, "call": "inactive"}
{"gene": "ncd", "amplicon": "DRSC17012", "infection score, replicate 1": 3.21, "infection score, replicate 2": 1.46, "cell count, replicate 1": 6208, "cell count, replicate 2": 6039, "call": "inactive"}
{"gene": "CG9265", "amplicon": "DRSC03178", "infection score, replicate 1": 0.4, "infection score, replicate 2": 1.24, "cell count, replicate 1": 756, "cell count, replicate 2": 6544, "call": "inactive"}
{"gene": "CG9265", "amplicon": "DRSC03179", "infection score, replicate 2": 7.85, "cell count, replicate 1": 580, "cell count, replicate 2": 6353, "call": "inactive"}
{"gene": "CG14830", "amplicon": "DRSC08876", "infection score, replicate 1": 2.94, "infection score, replicate 2": 0.97, "cell count, replicate 1": 6257, "cell count, replicate 2": 5954, "call": "inactive"}
{"gene": "CG14830", "amplicon": "DRSC10200", "infection score, replicate 1": 2.28, "infection score, replicate 2": 1.78, "cell count, replicate 1": 6454, "cell count, replicate 2": 5858, "call": "inactive"}
{"gene": "CG14830", "amplicon": "DRSC26586", "infection score, replicate 1": 1.96, "infection score, replicate 2": 4.85, "cell count, replicate 1": 7032, "cell count, replicate 2": 5690, "call": "inactive"}

2 entries already listed, sorted by “cell count, replicate 2”, ascending.
{"gene": "CG14830", "amplicon": "DRSC08876", "infection score, replicate 1": 2.94, "infection score, replicate 2": 0.97, "cell count, replicate 1": 6257, "cell count, replicate 2": 5954, "call": "inactive"}
{"gene": "CG9265", "amplicon": "DRSC03179", "infection score, replicate 2": 7.85, "cell count, replicate 1": 580, "cell count, replicate 2": 6353, "call": "inactive"}
